## Results of single-concentration screens

Results are given as percent effect. The controls that fix the scale are not given in the record; negative values are as filed. The entries come from a sample that favours strong results. A dash means the value is not listed here; it may have been measured.

Mtb glucose medium: 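Growth of Mycobacterium tuberculosis over 3 days (7H9 medium with glucose and tyloxapol); the read-out is not stated. Compounds at 500 µM. The record gives no direction; compounds that gave an IC50 in retests scored well above the rest, so higher reads as more growth inhibition. About 18,000 compounds were tested under these conditions; 7.9% (about 1,400) showed 50% or more at least once.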
Mtb cholesterol medium: 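Phenotypic screen: M. tuberculosis growth, cholesterol and DPPC medium, 4 days; the read-out is not stated. Tested at 500 µM. The record gives no direction; compounds that gave an IC50 in retests scored well above the rest, so higher reads as more growth inhibition. About 18,000 compounds were tested under these conditions; 5% (about 900) showed 50% or more at least once.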

| # | SMILES | Mtb glucose medium | Mtb cholesterol medium |
|---|---|---|---|
| 1 | `CCOc1ccccc1OC1CCN(CC(N)=O)CC1` | - | -22.37 |
| 2 | `O=C(Cc1ccccc1Cl)NC1CCCNC1` (stereo unspecified) | 13.69 | - |
| 3 | `CCCC(C)CS(=O)(=O)NCc1ccncc1` (stereo unspecified) | 69.45 | 59.84 |
| 4 | `COc1ccc(CC(N)=O)cc1OC` | -2.151 | -16.87 |
| 5 | `COCCNC(=O)Nc1ccc(OC(F)F)c(F)c1` | 66.66 | 69.12 |
| 6 | `N#Cc1ccccc1C(=O)N1CCOC2(CCCC2)C1` | 31.09 | - |
| 7 | `FC(F)(F)c1ccc(NCCNCc2cc[nH]n2)nc1` | 10.45 | 9.179 |
| 8 | `CC(=O)NCCNC(=O)CN(CC1CCOC1)C1CC1` (stereo unspecified) | -2.606 | - |
| 9 | `O=C(CCCc1ccccc1)N1CCNCC1` | 8.679 | - |
| 10 | `C1CC(OC2CCOCC2)CCN1` | 1.967 | - |
| 11 | `CC(C)(C)OC(=O)N1CCOCC(CO)C1` (stereo unspecified) | 3.455 | - |
| 12 | `CCC1(CNCc2ccc3c(c2)OCO3)COC1` | 11.6 | - |
| 13 | `Cn1ccc(C(=O)N2CCCC2c2cccs2)cc1=O` (stereo unspecified) | -1.749 | - |
| 14 | `COC(=O)CC(C)(N)c1ccccc1` (stereo unspecified) | -2.449 | - |
| 15 | `CCC(CO)(CO)NCc1csc(-c2cccs2)n1` | 63.5 | 63.42 |
| 16 | `CC1(C)CN(C(=O)c2cc(C3CC3)on2)CCO1` | 34.83 | 26.2 |
| 17 | `COC(=O)C(NC(=O)c1ccoc1)c1ccccc1` (stereo unspecified) | 12.17 | 4.621 |
| 18 | `NCc1c(C(N)=O)oc2ccccc12` | 37.71 | - |
| 19 | `Cn1cc(CCCO)cn1` | -28.15 | - |
| 20 | `COc1c(F)cc(CN2CC[C@@H](N)[C@H](O)C2)cc1Cl` | 57.68 | 26.56 |
| 21 | `CC(C)(C)OC(=O)N1CCN2C(=O)NCC2C1` (stereo unspecified) | - | -17.81 |
| 22 | `c1ccc(NCCNc2ccccn2)cc1` | 72.75 | 72.32 |
| 23 | `CC[C@H](C)[C@H](N)C(=O)N(C)C` | 4.451 | - |
| 24 | `NC(CO)C1CCOCC1` (stereo unspecified) | 9.011 | - |
| 25 | `CN1CCN(CC2CNC2)CC1` | - | -2.181 |
| 26 | `O=C(CCN1CCCC1CO)NCc1ccccc1Cl` (stereo unspecified) | 69.31 | 80.07 |
| 27 | `CC(=O)N1CCC(C(=O)Nc2ccc(C)c(C)c2)CC1` | - | 40.42 |
| 28 | `COC(=O)CCN(Cc1nccn1C)CC1CCCO1` (stereo unspecified) | 27.78 | - |
| 29 | `CN(C)C(=O)CCOC(=O)c1cccc(Cl)c1` | 70 | 53.06 |
| 30 | `Cc1cc(C(=O)NCCCNc2ccccn2)no1` | - | -14.65 |
| 31 | `CC1CN(C(=O)c2ccc(Cl)o2)CC(C)(C)O1` (stereo unspecified) | - | -6.107 |
| 32 | `CCN(CC)CCCN1CCOC2(CCOCC2)C1` | 0.6609 | - |
| 33 | `CC(C)N(CCOc1ccccc1C#N)CC(N)=O` | 44.62 | 30.85 |
| 34 | `COc1cccc(N2CCC(N)CC2)c1` | 61.48 | 29.31 |
| 35 | `CCC(=O)c1cc(N)on1` | - | -12.81 |
| 36 | `CN(C)CCNC(=O)c1ccc(F)cc1` | 7.753 | 7.321 |
| 37 | `COCCCN(C)S(=O)(=O)c1ccc(Br)cn1` | 71.94 | 56.18 |
| 38 | `CSCC[C@@H](CO)NC(=O)c1cc(C(C)C)nn1C` | 23.8 | 5.693 |
| 39 | `Cc1nc(CN2CCN(c3ncccc3F)CC2)n[nH]1` | - | 13.66 |
| 40 | `CNC(=O)c1cccnc1N1CCSCC1` | 12.96 | - |
| 41 | `CC(C)N(CC(C)(C)O)C(=O)NCC1CCCO1` (stereo unspecified) | -1.045 | - |
| 42 | `CCC(C)(O)CNC(=O)CCOC(C)C` (stereo unspecified) | - | 1.967 |
| 43 | `O=C(NC1(c2nnc[nH]2)CCC1)c1ccc(Cl)cn1` | -1.774 | - |
| 44 | `Cn1nccc1C(=O)NCc1cccs1` | 42.87 | 24 |
| 45 | `CCc1noc(CS(=O)(=O)C(C)C(=O)NC2CC2)n1` (stereo unspecified) | 11.32 | - |
| 46 | `Cc1cccc(C)c1OC1CN(C(=O)CS(C)(=O)=O)C1` | 30.81 | - |
| 47 | `CCOC(=O)C1=C(CN(C)CC)NC(=O)NC1` | - | -24.55 |
| 48 | `OC(CN1CCn2ccnc2C1)c1ccc(Cl)cc1` (stereo unspecified) | 65.35 | - |
| 49 | `COCc1cccc(C(=O)NC(C)COC)c1` (stereo unspecified) | 21.67 | - |
| 50 | `CC(C)(C)c1n[nH]cc1CNCCCNS(C)(=O)=O` | 36.66 | - |
| 51 | `CC(C)(C#N)C(=O)Nc1nc2ccccc2[nH]1` | -1.166 | - |
| 52 | `CCC1(C(=O)NCC2CCCNC2)CCCC1` (stereo unspecified) | - | -8.143 |
| 53 | `NC(=O)CC(NCc1ccc(Br)o1)C1CCOCC1` (stereo unspecified) | -12.49 | - |
| 54 | `CCc1nsc(N2CCN(CC(O)COC)CC2)n1` (stereo unspecified) | 12.69 | - |
| 55 | `O=c1cc(CO)nc2ccccn12` | -4.48 | - |
| 56 | `CCN(Cc1ccoc1)C(=O)Nc1cccnc1OC` | 37.52 | - |
| 57 | `Cc1ccccc1OCC(O)CN1CCC[C@@H]1CO` (stereo partly specified) | 52.27 | - |
| 58 | `COC(=O)Cn1cnc(N)n1` | - | 2.316 |
| 59 | `CCSc1nc(N)c(C#N)cc1C#N` | 14.93 | - |
| 60 | `CN(Cc1cccs1)C(=O)CSc1n[nH]c(=O)n1C` | 4.618 | - |
| 61 | `Cc1csc(CCNC(=O)C2CCCO2)n1` (stereo unspecified) | 11 | -10.38 |
| 62 | `CSCC1CCCN1Cc1cccc(N)n1` (stereo unspecified) | 20.16 | 1.243 |
| 63 | `NC(=O)c1ccsc1NC(=O)CCN1CCCC1` | 71.65 | 53.67 |
| 64 | `Cc1cc(C)cc(C2(C(=O)N(C)CC(N)=O)CCC2)c1` | - | 2.298 |
| 65 | `O=C(Cn1cc(Cl)cn1)N1CCC2(CCCNC2)C1` (stereo unspecified) | 7.117 | - |
| 66 | `CC(C)(N)C(O)c1ccc(Br)cc1` (stereo unspecified) | 73.27 | 59.54 |
| 67 | `CCNS(=O)(=O)c1ccc(CC(=O)N(C)C)cc1` | 7.995 | - |
| 68 | `CCOC(=O)C1CCN(C(=O)c2nccnc2N)CC1` | - | 7.321 |
| 69 | `CC(Sc1nnc(NCc2ccc(F)cc2)s1)C(N)=O` (stereo unspecified) | 3.869 | - |

The first 4 entries again:

SMILES	Mtb glucose medium	Mtb cholesterol medium
CCOc1ccccc1OC1CCN(CC(N)=O)CC1	-	-22.37
O=C(Cc1ccccc1Cl)NC1CCCNC1 (stereo unspecified)	13.69	-
CCCC(C)CS(=O)(=O)NCc1ccncc1 (stereo unspecified)	69.45	59.84
COc1ccc(CC(N)=O)cc1OC	-2.151	-16.87

Measurements from “University of Dundee, Small-Polar-MMV Screening Library” (2021), ChEMBL document CHEMBL3988442.